PubChem BioAssay AID1259414, Drosophila RNAi Screening Center – 2018

- Purpose: 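Host factors increasing or decreasing Wolbachia levels in cultured fly cells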 (primary screen)
- Cell system: Drosophila JW18 cells infected with Wolbachia
- Reagent: long dsRNA against Drosophila genes, 0.25 µg dsRNA per well of a 384-well plate
- Duration: 5 days
- Treatment: cells persistently infected with Wolbachia before knock-down; no added drug
- Detection: 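Automated imaging of bacterial rRNA staining divided by host cell count, reported as plate-normalised robust z-score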
- Reading the numbers: Wolbachia per cell robust z: higher = more Wolbachia per host cell than the plate typical
- Active means: 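Active if absolute robust z reaches 1.5 in two or more of three replicates, leaving out multi- or no-target dsRNAs, genes unexpressed in JW18 and A1 wells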
In all, the deposit lists about 24,000 reagents; below is an unselected part of those with a known target gene and a result. In the full data, about 1,210 (5%) were called active. 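Inactive calls also include excluded dsRNAs with several or no targets, genes unexpressed in JW18, and well A1, regardless of score.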 Entries without a mark were called inactive. A plus sign joins genes that one reagent is predicted to hit. Reagent sequences are not shown.

CG11902 (GeneID 43070) [DRSC14434] scored Wolbachia per cell robust z, rep 1 = 0.442; Wolbachia per cell robust z, rep 2 = 0.986; Wolbachia per cell robust z, rep 3 = 0.205. Depletion of CG11902 (GeneID 43070) [DRSC28805] gave: Wolbachia per cell robust z, rep 1 = 0.928; Wolbachia per cell robust z, rep 2 = 0.557; Wolbachia per cell robust z, rep 3 = 1.2. After knock-down of Orct (GeneID 42891) [DRSC16777], the record shows Wolbachia per cell robust z, rep 1 = 1.03; Wolbachia per cell robust z, rep 2 = 0.772; Wolbachia per cell robust z, rep 3 = -1.31. After knock-down of Orct (GeneID 42891) [DRSC25574] the results were Wolbachia per cell robust z, rep 1 = 1.08; Wolbachia per cell robust z, rep 2 = 1.56; Wolbachia per cell robust z, rep 3 = 0.176. Depletion of CG14974 (GeneID 50167) [DRSC08433] came out at: Wolbachia per cell robust z, rep 1 = 0.723; Wolbachia per cell robust z, rep 2 = 0.478; Wolbachia per cell robust z, rep 3 = 0.693. CG17298 (GeneID 42529) [DRSC15221] scored Wolbachia per cell robust z, rep 1 = 0.445; Wolbachia per cell robust z, rep 2 = 1.53; Wolbachia per cell robust z, rep 3 = 1.32.

Depletion of CG17298 (GeneID 42529) [DRSC27897] resulted in: Wolbachia per cell robust z, rep 1 = -3.67; Wolbachia per cell robust z, rep 2 = -0.0339; Wolbachia per cell robust z, rep 3 = 0.87. With knock-down of CG7458 + CR34262 [DRSC38665], the screen gave Wolbachia per cell robust z, rep 1 = 1.23; Wolbachia per cell robust z, rep 2 = -0.449; Wolbachia per cell robust z, rep 3 = -0.356. For CG18746 (GeneID 59142) [DRSC15383], the values are Wolbachia per cell robust z, rep 1 = -1.7; Wolbachia per cell robust z, rep 2 = -0.438; Wolbachia per cell robust z, rep 3 = 0.132. CG1750 (GeneID 43699) [DRSC15240] showed Wolbachia per cell robust z, rep 1 = -4.29 (active); Wolbachia per cell robust z, rep 2 = -0.455; Wolbachia per cell robust z, rep 3 = -5.01. With knock-down of Gr39a (GeneID 117346) [DRSC01841] the results were Wolbachia per cell robust z, rep 1 = -0.0653; Wolbachia per cell robust z, rep 2 = -0.0364; Wolbachia per cell robust z, rep 3 = -0.989. For Gr39a (GeneID 117346) [DRSC01842] the deposit lists Wolbachia per cell robust z, rep 1 = -0.627; Wolbachia per cell robust z, rep 2 = -0.00115; Wolbachia per cell robust z, rep 3 = -0.499.

Gr39a (GeneID 117346) [DRSC27181] gave Wolbachia per cell robust z, rep 1 = 0.225; Wolbachia per cell robust z, rep 2 = -0.773; Wolbachia per cell robust z, rep 3 = -4.15. Depletion of Exo70 (GeneID 38959) [DRSC10774] came out at: Wolbachia per cell robust z, rep 1 = 1.22; Wolbachia per cell robust z, rep 2 = 1.41; Wolbachia per cell robust z, rep 3 = 1.18. Ts (GeneID 33499) [DRSC00795] gave Wolbachia per cell robust z, rep 1 = 0.0142; Wolbachia per cell robust z, rep 2 = -0.249; Wolbachia per cell robust z, rep 3 = -0.525. Knock-down of Ts (GeneID 33499) [DRSC22168] resulted in: Wolbachia per cell robust z, rep 1 = 0.996; Wolbachia per cell robust z, rep 2 = 0.579; Wolbachia per cell robust z, rep 3 = 0.567.

Records listed so far whose target name starts with T or t:
Ts (GeneID 33499) [DRSC00795]: Wolbachia per cell robust z, rep 1 = 0.0142; Wolbachia per cell robust z, rep 2 = -0.249; Wolbachia per cell robust z, rep 3 = -0.525
Ts (GeneID 33499) [DRSC22168]: Wolbachia per cell robust z, rep 1 = 0.996; Wolbachia per cell robust z, rep 2 = 0.579; Wolbachia per cell robust z, rep 3 = 0.567
